Structures were worked out from names or drawings and are uncertain.
Legend:
hYAP-WW1 = hYAP-WW1 (Homo sapiens, UniProt P46937); assay: ITC, direct titration of peptide ligands into YAP-WW1; conditions: 25 °C, 20 mM sodium phosphate pH 7.0, n. b. = no binding
hNEDD4-WW3 [1] = target: T1, hNEDD4-WW3 (Homo sapiens, UniProt P46934); assay: ITC, direct titration of peptide ligands into hNEDD4-WW3; conditions: 25 °C, 20 mM sodium phosphate pH 7.0, n. b. = no binding, b64 also names displacement experiments for HTLV1-ter and Ebola-ter
hYAP-WW2 = hYAP-WW2 (Homo sapiens, UniProt P46937); assay: ITC, direct titration of peptide ligands into YAP-WW2; conditions: 25 °C, 20 mM sodium phosphate pH 7.0, n. b. = no binding
hNEDD4-WW3 [2] = target: T1, hNEDD4-WW3; assay: Titration followed by fluorescence spectroscopy, hNEDD4-WW3; assay type: binding; conditions: 20 mM sodium phosphate pH 7.0, 25 °C

By UniProt entry, the sequences of proteins in these tests, tags left out. Residues count along the entry.
UniProt P46937, 165-209 limits assumed: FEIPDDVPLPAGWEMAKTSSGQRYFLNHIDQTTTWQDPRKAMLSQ
UniProt P46937, 228-271 limits assumed: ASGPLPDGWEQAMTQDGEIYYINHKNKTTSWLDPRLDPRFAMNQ
UniProt P46934, 834-878 limits assumed: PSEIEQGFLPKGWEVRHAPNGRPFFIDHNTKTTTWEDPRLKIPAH

With `CC[C@H](C)[C@H](NC(C)=O)C(=O)N[C@@H](CC(C)C)C(=O)N1CCC[C@H]1C(=O)N[C@H](C(=O)N[C@@H](C)C(=O)N1CCC[C@H]1C(=O)N1CCC[C@H]1C(=O)N[C@@H](CCC(=O)O)C(=O)N[C@@H](Cc1ccc(O)cc1)C(N)=O)[C@@H](C)O` the Kd (hYAP-WW1) was “n. b”, the Kd (hNEDD4-WW3 [1]) was “n. b” and the Kd (hNEDD4-WW3 [1]; listed as Ebolater) was “no binding could be detected”. The Kd (hYAP-WW2) was “n. b” and the “binding detected by fluorescence spectroscopy” value (hNEDD4-WW3 [2]) was “no binding could be detected”.

Source: PMC6803667, “Binding site plasticity in viral PPxY Late domain recognition by the third WW domain of human NEDD4” (Scientific Reports, 2019)
